PubChem BioAssay AID504761 – Drosophila RNAi Screening Center | 2011
The deposit covers about 22,000 reagents; this is a random part of those that have a named target and a result. Over the whole deposit, 116 (0.52%) are marked active. 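Calls depend on retest data that are not deposited; infection was ranked per plate without normalising between plates; the unit of the infection score is not given.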 The raw values are shown without normalisation. Unmarked entries are inactive. Reagent sequences are not shown. Not given: the amount of reagent, the time to read-out.

Test: 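Genome-wide fly cell screen for genes dengue virus requires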 (primary screen)
System: D.Mel-2 cells from Drosophila
Knock-down reagent: long dsRNA against Drosophila genes
Challenge: infection with dengue virus type 2; dose and infection time not stated
Read-out: 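Cells stained for dengue envelope protein and imaged; percent of infected cells per well on duplicate plates, ranked by infection, with stained nuclei counted for cell number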
Direction: infection score: higher = more virus-infected cells; cell count: higher = more cells in the well
Call rule: 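Very low infection ranking in both replicate wells (chance probability at most 0.065), then a retest showing infection dropped 1.5-fold or more at p below 0.05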
Meaning of the calls: active = confirmed: knock-down lowers infection; inactive = not picked or not confirmed

gene knocked down | DRSC id | infection score, replicate 1 | infection score, replicate 2 | cell count, replicate 1 | cell count, replicate 2
DNAlig3 (GeneID 41518) | DRSC15201 | 16.1 | 12.9 | 5985 | 6829
DNAlig3 (GeneID 41518) | DRSC29603 | 12.2 | 28.3 | 4548 | 4055
conv (GeneID 36588) | DRSC07213 | 9.52 | 24.6 | 6774 | 5559
Gad1 (GeneID 38484) | DRSC08661 | 12.1 | 10.9 | 5666 | 5558
Gad1 (GeneID 38484) | DRSC27052 | 10.5 | 3.79 | 6328 | 6623
Fer3 (GeneID 41411) | DRSC16133 | 5.57 | 7.74 | 6281 | 6655
Fer3 (GeneID 41411) | DRSC26669 | 1.3 | 11.4 | 6222 | 6020
betaTub85D (GeneID 41124) | DRSC16910 | 4.68 | 2.29 | 3909 | 4060
betaTub85D (GeneID 41124) | DRSC25043 | 13.3 | 9.39 | 6339 | 6612
CG14621 (GeneID 33128) | DRSC20635 | 6.18 | 2.26 | 5810 | 5706
CG14621 (GeneID 33128) | DRSC27094 | – | 3.5 | – | 3571
CG17361 (GeneID 39548) | DRSC23446 | 2.74 | 3.86 | 6023 | 5699
Acadvl (GeneID 37217) | DRSC07022 | 5.03 | 11.6 | 6874 | 6227
Acadvl (GeneID 37217) | DRSC26484 | 2.48 | 6.31 | 6337 | 5818
CG17821 (GeneID 37159) | DRSC06696 | 3.17 | 1.11 | 6443 | 6241
AstA-R1 (GeneID 44126) | DRSC17278 | 1.59 | 5.81 | 6788 | 6678
AstA-R1 (GeneID 44126) | DRSC17727 | – | 24.5 | 323 | 5996
Tace (GeneID 43558) | DRSC16340 | 3.89 | 22.1 | 6266 | 6461
CG17047 (GeneID 36478) | DRSC06648 | 14.5 | – | 3692 | 370
D12 (GeneID 34172) | DRSC03311 | 1.62 | 13.9 | 6465 | 4804
ScpX (GeneID 44183) | DRSC03430 | 17.9 | 8.64 | 6127 | 5981
tex (GeneID 40983) | DRSC16517 | 12.5 | 9.23 | 6275 | 6567
CG3511 (GeneID 37926) | DRSC04382 | 21.4 | 32.9 | 6084 | 4857
CG3511 (GeneID 37926) | DRSC28281 | 5.51 | 21.6 | 5464 | 3985
CG31140 (GeneID 42836) | DRSC14603 | 1.9 | 1.89 | 6255 | 6525
CG31140 (GeneID 42836) | DRSC15904 | 2.93 | 8.27 | 5940 | 6592
Npc2d (GeneID 41232) | DRSC14551 | 3.43 | 4.48 | 6059 | 6425
Npc2d (GeneID 41232) | DRSC28011 | 28.7 | 28.4 | 5069 | 6006
CG13310 (GeneID 39007) | DRSC09981 | 0.22 | 3.17 | 6457 | 6117
CG13310 (GeneID 39007) | DRSC28258 | 16.9 | 13.1 | 3157 | 6740
CG13671 (GeneID 38932) | DRSC10030 | 3.51 | 13.1 | 6245 | 5562
Amun (GeneID 32123) | DRSC19847 | 14 | 10.9 | 5769 | 6120
Amun (GeneID 32123) | DRSC28058 | – | 12.1 | 508 | 6291
dnc (GeneID 31309) | DRSC17759 | 1.77 | 1.36 | 6162 | 6961
dnc (GeneID 31309) | DRSC17911 | 4.07 | 2.03 | 6442 | 6348
dnc (GeneID 31309) | DRSC18764 | 9.5 | 0.84 | 3030 | 6772
Uba3 (GeneID 36539) | DRSC06377 | 28.1 | 18.8 | 4752 | 5985
CG7272 (GeneID 39670) | DRSC10795 | 1.67 | 6.03 | 6711 | 6515
CG31230 (GeneID 318637) | DRSC22130 | 2.88 | 5.04 | 6418 | 7207
CG31230 (GeneID 318637) | DRSC26678 | 1.6 | 3.45 | 6832 | 5657
w (GeneID 31271) | DRSC18850 | 8.8 | 6.51 | 3464 | 4364
w (GeneID 31271) | DRSC30065 | 5.98 | 3.1 | 6272 | 6032
Tpc2 (GeneID 37983) | DRSC04322 | 14.4 | 10.8 | 6560 | 6245
CG13712 (GeneID 38574) | DRSC08321 | 2.68 | 1.8 | 5831 | 6003
lncRNA:bxd (GeneID 3772220) | DRSC13176 | 0.59 | 0.2 | 5971 | 6362
lncRNA:bxd (GeneID 3772220) | DRSC28062 | 22.7 | 22.6 | 6641 | 6377
CG8301 (GeneID 41160) | DRSC16405 | 3.71 | 3.08 | 5123 | 5326
CG8301 (GeneID 41160) | DRSC28170 | 17.4 | 21.4 | 6133 | 5185
ArfGAP1 (GeneID 39417) | DRSC11173 | 9 | 3.91 | 6146 | 6092
CG3356 (GeneID 37876) | DRSC04358 | 18.7 | 27.6 | 6266 | 5793
CG3356 (GeneID 37876) | DRSC28869 | 10.3 | 7.48 | 4997 | 2862
mei-41 (GeneID 32608) | DRSC20350 | 3.65 | 1.83 | 6803 | 6324
Pgant9 (GeneID 246627) | DRSC05621 | 0.96 | 0.41 | 6789 | 6390
Pgant9 (GeneID 246627) | DRSC06584 | 6.67 | 25.7 | 1845 | 6292
Pgant9 (GeneID 246627) | DRSC07185 | 7.07 | 3.87 | 6594 | 6620
Pgant9 (GeneID 246627) | DRSC07186 | 15.2 | 11.8 | 6322 | 6792
Pgant9 (GeneID 246627) | DRSC07187 | 25.7 | 8.53 | 6015 | 6848
Pgant9 (GeneID 246627) | DRSC07189 | 21.6 | 8.79 | 5173 | 6743
CG31068 (GeneID 318578) | DRSC13820 | 2.22 | 5.5 | 6249 | 5960
beat-IIIc (GeneID 35037) | DRSC02438 | 5.54 | 1.28 | 6394 | 6491
beat-IIIc (GeneID 35037) | DRSC02949 | 4.01 | 4.43 | 6540 | 6346
CG10064 (GeneID 38761) | DRSC09689 | 2.03 | 1.46 | 5816 | 6218
CG32148 (GeneID 251924) | DRSC09338 | 9.24 | 6.29 | 6301 | 6561
CG32148 (GeneID 251924) | DRSC28787 | – | – | 309 | 399
CG34051 (GeneID 3885660) | DRSC01739 | 20.5 | 23.4 | 4512 | 5987
Mink (GeneID 42982) | DRSC14291 | 4.36 | 11.7 | 6350 | 6559
Spg7 (GeneID 31253) | DRSC18469 | 0.22 | 6.64 | 448 | 4516
natalisin (GeneID 5740700) | DRSC14967 | 2.44 | 15.3 | 6397 | 6122
natalisin (GeneID 5740700) | DRSC23390 | 5.13 | 12.1 | 5343 | 5097
natalisin (GeneID 5740700) | DRSC26336 | 9.46 | 7.47 | 5348 | 6173
bnk (GeneID 43687) | DRSC16912 | 12.2 | – | 1853 | 250
bnk (GeneID 43687) | DRSC29887 | 14.9 | 2.16 | 6163 | 6351
Rsod (GeneID 43586) | DRSC15424 | 3.15 | 8.26 | 6391 | 4821
CG11562 (GeneID 33200) | DRSC00316 | 14.1 | 16.7 | 6349 | 6800

A portion from the list above, as a working copy:
gene knocked down | DRSC id | infection score, replicate 1 | infection score, replicate 2 | cell count, replicate 1 | cell count, replicate 2
betaTub85D (GeneID 41124) | DRSC25043 | 13.3 | 9.39 | 6339 | 6612
CG14621 (GeneID 33128) | DRSC20635 | 6.18 | 2.26 | 5810 | 5706
CG14621 (GeneID 33128) | DRSC27094 | – | 3.5 | – | 3571
CG17361 (GeneID 39548) | DRSC23446 | 2.74 | 3.86 | 6023 | 5699
Acadvl (GeneID 37217) | DRSC07022 | 5.03 | 11.6 | 6874 | 6227
Acadvl (GeneID 37217) | DRSC26484 | 2.48 | 6.31 | 6337 | 5818
CG17821 (GeneID 37159) | DRSC06696 | 3.17 | 1.11 | 6443 | 6241
AstA-R1 (GeneID 44126) | DRSC17278 | 1.59 | 5.81 | 6788 | 6678
AstA-R1 (GeneID 44126) | DRSC17727 | – | 24.5 | 323 | 5996
Tace (GeneID 43558) | DRSC16340 | 3.89 | 22.1 | 6266 | 6461
